The numbers were not newly measured in article PMC3066103, which cites them from elsewhere.

Amino acid sequences for entries named in this document (tags omitted). Residues count along the entry.
UniProt P58335, 40-217: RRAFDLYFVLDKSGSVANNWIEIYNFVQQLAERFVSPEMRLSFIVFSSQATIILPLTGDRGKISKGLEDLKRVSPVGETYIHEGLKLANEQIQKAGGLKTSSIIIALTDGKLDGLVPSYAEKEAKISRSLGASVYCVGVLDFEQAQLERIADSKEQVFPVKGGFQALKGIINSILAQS

The target in the data set is CMG-2 VWA domain (Homo sapiens) (UniProt P58335).

pKd: −log10 of the molar value.

Take “protective antigen (PA) (from UniProt P13423)”: the pKd is 9.70.

One may read the pKd as the negative decadic logarithm of the Kd, by convention in mol/L.
